Anti-infective test results gathered from many reports (values: NIAID ChemDB through PubChem).

All rows: target-level tests

Fold resistance has wild type as its base. Rows are shuffled and stem from different studies. ICn: concentration for n% inhibition. Blank or dashed fields: not listed here. Two numbers with a dash give a range or band. Inhibition is in % at the dose shown (toxicity tests: loss of growth or viability).

structure	endpoint	method	protein	tested at	changes	agent	strain	result
COc1ccc(-c2ccc(C)cc2)c(-c2ccc3cc(-c4nc5cc(C(=O)O)ccc5n4C4CCCCC4)ccc3n2)c1	inhibition	-	NS5B polymerase	33 µM	-	Hepatitis C virus	-	98.71%
CC1(c2ccc(OCC#N)c(Cl)c2Cl)C(=O)c2ccccc2C1=O	IC50	-	Geranylgeranyl-protein transferase I	-	-	Candida albicans	-	0.07 µM
O=C(Nc1nnc(NCCc2ccccc2)s1)c1ccc(Cl)cc1Cl	IC50	-	Polymerase	-	-	Human cytomegalovirus	-	>25 µM
C[C@H]1NCc2cc(-c3c(F)cc4c(=O)c(C(=O)O)cn(C5CC5)c4c3OC(F)F)ccc21	IC50	-	DNA gyrase	-	-	Streptococcus pneumoniae	-	11.6 µg/mL
O=C(O)c1ccc2c(c1)nc(-c1ccc3nc(-c4cc(C(=O)N5CCCC5)ccc4-c4ccc(F)cc4)ccc3c1)n2C1CCCCC1	inhibition	-	NS5B polymerase	33 µM	-	Hepatitis C virus	-	100%
c1coc(CNc2nccnc2-c2cc3ccccc3o2)c1	IC50	-	UL97 kinase	-	-	Cytomegalovirus	-	<100 µM
O=C(O)c1cc2nc(-c3ccc(Cl)cc3)cc(N3CCOCC3)n2n1	IC50	-	RNA-dependent RNA polymerase	-	-	Hepatitis C virus	-	>10 µM
Cc1c(Cl)cccc1S(=O)(=O)Nc1ccccc1-c1nc(C(=O)O)c(O)c(=O)[nH]1	IC50	-	HCV polymerase	-	-	Hepatitis C virus	-	<100 µM
Cc1cccc(-c2cncc(N3CCN(c4ccc(F)cc4)CC3)n2)c1	IC50	-	UL97 kinase	-	-	Cytomegalovirus	-	<100 µM
COc1cccc(-c2cnc3c(C(=O)O)cnn3c2C2CCCCC2)c1	IC50	-	RNA-dependent RNA polymerase	-	-	Hepatitis C virus	-	1–10 µM
O=C(O)c1ccc2c(c1)nc(-c1ccc3nc(-c4ccccc4)c(-c4ccccc4)nc3c1)n2C1CCCCC1	inhibition	-	NS5B polymerase	100 µM	-	Hepatitis C virus	-	98.06%
CCCCCCC1N=C(N)N=C(N)N1c1ccc(Cl)cc1	IC50	-	Dihydrofolate reductase	-	-	Cryptosporidium parvum	TYPE I	200 µM
CN1CCN(c2ccc3c(=O)c(C(=O)O)cn(C4CC4)c3c2)CC1	IC50	-	Topoisomerase II	-	-	Streptococcus pneumoniae	-	106 µg/mL
COc1ccc(N(C)c2cc(-c3ccc(Cl)cc3)nc3cc(C(=O)O)nn23)cc1	IC50	-	RNA-dependent RNA polymerase	-	-	Hepatitis C virus	-	>10 µM
c1ccc2c(-c3cncc(N4CCN(c5ccncc5)CC4)n3)cccc2c1	inhibition	-	UL97 kinase	1 µM	-	Cytomegalovirus	-	<50%
Nc1ncc(CNc2ccc(C(=O)N[C@@H](CCC(=O)O)C(=O)O)cc2)c(N)n1	IC50	-	Dihydrofolate reductase	-	-	Cryptosporidium parvum	TYPE I	0.07 µM
O=C(N[C@@H](C(=O)O)c1ccc(O)cc1)c1cnn2c(C3CCCCC3)c(-c3ccc(F)cc3)cnc12	IC50	-	RNA-dependent RNA polymerase	-	-	Hepatitis C virus	-	<1 µM
O=C(O)c1ccc2c(c1)nc(-c1ccc3nc(-c4cc5c(cc4-c4ccc(Cl)cc4)OCCCO5)ccc3c1)n2C1CCCCC1	inhibition	-	NS5B polymerase	33 µM	-	Hepatitis C virus	-	102%
CC(=O)c1ccc(-c2cncc(N3CCC(c4ccccc4)CC3)n2)cc1	IC50	-	UL97 kinase	-	-	Cytomegalovirus	-	<10 µM
CCOC(=O)CCCN1C(=O)c2ccccc2C(C(C)=O)C1=O	IC50	-	Protease	-	-	Rhinovirus	Serotype 2	>200 µM
Nc1ccn([C@@H]2CS[C@H](COP(=O)(O)OP(=O)(O)OP(=O)(O)O)O2)c(=O)n1	fold resistance	radiometric	Reverse transcriptase	-	RT-M184V	HIV	-	296
N#Cc1ccc(C(=O)Nc2nnc(NCc3cccs3)s2)cc1	IC50	-	Polymerase	-	-	Human cytomegalovirus	-	>25 µM
O=C(O)c1nc(-c2ccccc2NS(=O)(=O)c2cc(OCC(F)(F)F)ccc2OCC(F)(F)F)[nH]c(=O)c1O	IC50	-	HCV polymerase	-	-	Hepatitis C virus	-	<100 µM
O=C(O)c1ccc2c(c1)nc(-c1ccc3nc(-c4cc(OCCCN5CCCC5)ccc4-c4ccccc4)ccc3c1)n2C1CCCCC1	inhibition	-	NS5B polymerase	100 µM	-	Hepatitis C virus	-	96.65%
N#Cc1ccc(C(=O)Nc2nnc(NCCc3ccccc3)s2)cc1	IC50	-	Polymerase	-	-	Human cytomegalovirus	-	>25 µM
CC1c2nc(N)nc(N)c2CN1C(=O)c1ccccc1	IC50	-	Dihydrofolate reductase	-	-	Cryptosporidium parvum	TYPE I	>100 µM
CCOC(=O)c1cnn2c(C)cc(-c3ccc(OCC)cc3)nc12	IC50	-	RNA-dependent RNA polymerase	-	-	Hepatitis C virus	-	>10 µM
Clc1cc(CN2CCCNCCNCCCNCC2)cc(Cl)n1	IC50	-	CXCR4	-	CXCR4-D193N	-	-	0.34 µM
O=C(Nc1nnc(NC2CCCc3ccccc32)s1)c1cccc([N+](=O)[O-])c1	IC50	-	Polymerase	-	-	Human cytomegalovirus	-	>25 µM
CC(=O)c1ccc(N2CCN(c3cncc(-c4csc5ccccc45)n3)CC2)cc1	inhibition	-	UL97 kinase	1 µM	-	Cytomegalovirus	-	<50%
CS(=O)(=O)CCCN1C(=O)c2ccccc2C(C(=O)c2ccccc2)C1=O	IC50	-	Protease	-	-	Rhinovirus	Serotype 14	25 µM
COc1ccccc1C(=O)Nc1nnc(NCCCCc2ccccc2)s1	IC50	-	Polymerase	-	-	Human cytomegalovirus	-	>25 µM
CC(=O)c1cccc(-c2cncc(N3CCN(c4ccccn4)CC3)n2)c1	IC50	-	UL97 kinase	-	-	Cytomegalovirus	-	<10 µM
CN(C(=O)c1ccc2cc(-c3nc4cc(C(=O)O)ccc4n3C3CCCCC3)ccc2n1)c1ccc(Cl)cc1	inhibition	-	NS5B polymerase	100 µM	-	Hepatitis C virus	-	102%
Cc1ccc(N2CCN(c3cncc(-c4ccc(F)cc4)n3)CC2)cc1	IC50	-	UL97 kinase	-	-	Cytomegalovirus	-	<10 µM
O=C(NCCn1cncn1)Nc1cscc1-c1nc(C(=O)O)c(O)c(=O)[nH]1	IC50	-	HCV polymerase	-	-	Hepatitis C virus	-	<25 µM
O=C(N[C@@H](Cc1cc2ccccc2[nH]1)C(=O)O)c1cc2nc(-c3ccoc3)c(C3CCCCC3)c(=O)n2[nH]1	IC50	-	RNA-dependent RNA polymerase	-	-	Hepatitis C virus	-	<1 µM
Cc1[nH]nc2c1C(c1cc(Br)cc(C#N)c1)(C(C)C)C(C#N)=C(N)O2	Ki	absorbance	Serine hydroxymethyltransferase	-	-	Plasmodium falciparum	-	0.209 µM
O=C(O)C1C[C@@H](O)CN1C(=O)c1ccc2c(c1)nc(-c1ccc3nc(-c4ccccc4)cnc3c1)n2C1CCCCC1	inhibition	-	NS5B polymerase	100 µM	-	Hepatitis C virus	-	86.78%
COC(=O)C(CCSC)NC(=O)C1(Cc2ccccc2C)CCN(C(=O)[C@@H](N)CS)CC1	IC50	-	Geranylgeranyl-protein transferase I	-	-	Candida albicans	-	0.17 µM
Nc1nc(N)c(N=C/C=C/c2ccc([N+](=O)[O-])cc2)c(-c2ccccc2)n1	IC50	-	Dihydrofolate reductase	-	-	Cryptosporidium parvum	TYPE I	>100 µM
NNC(=O)c1ccncc1	IC50	-	NADH oxidase	-	-	Mycobacterium tuberculosis	H37RV (INH 10 ug/mL-R)	>1000 µM
CN(C)CCOc1ccccc1/C=N\N1CCN(C2Cc3ccccc3Sc3ccc(Cl)cc32)CC1	IC50	-	Geranylgeranyl-protein transferase I	-	-	Candida albicans	-	0.1 µM
COc1c(N2CCNC(C)C2)c(F)cc2c(=O)c(C(=O)O)cn(C3CC3)c12	IC50	-	Topoisomerase II	-	-	Streptococcus pneumoniae	-	1.61 µg/mL
Fc1ccccc1N1CCN(c2cncc(-c3cccc4ccccc34)n2)CC1	inhibition	-	UL97 kinase	10 µM	-	Cytomegalovirus	-	>15%
O=C(COc1ccc(Cl)cc1Cl)Nc1ccsc1-c1nc(C(=O)O)c(O)c(=O)[nH]1	IC50	-	HCV polymerase	-	-	Hepatitis C virus	-	<25 µM
O=C(CCCCCl)Nc1nnc(NCCSc2ccccc2)s1	IC50	-	Polymerase	-	-	Human cytomegalovirus	-	>25 µM
O[C@@H]1[C@@H](O)[C@@H](NCc2ccc(C(F)(F)F)cc2)[C@@H]2O[C@@H]2[C@H]1O	inhibition	-	Beta-D-xylosidase	100 µM	-	Aspergillus niger	-	93%
COc1ccc(-c2cc(-c3ccc(Cl)cc3)nc3cc(C(=O)O)nn23)cc1Cl	IC50	-	RNA-dependent RNA polymerase	-	-	Hepatitis C virus	-	>10 µM
O=C1c2ccccc2-[n+]2ccc3c([nH]c4ccccc43)c21	inhibition	ELISA	p56lck tyrosine kinase	700 µM	-	-	-	90%
O[C@@H]1[C@@H](O)[C@@H](NCc2ccc(-c3ccccc3)cc2)[C@H]2O[C@H]2[C@H]1O	inhibition	-	Beta-D-xylosidase	100 µM	-	Aspergillus niger	-	42%
Cc1[nH]nc2c1C(C)(c1cc(Cl)cc(Cl)c1)C(C#N)=C(N)O2	Ki	absorbance	Serine hydroxymethyltransferase	-	-	Plasmodium falciparum	-	3.57 µM
O=C1COc2ccc(-c3ccc4cc(-c5nc6cc(C(=O)O)ccc6n5C5CCCCC5)ccc4n3)cc2N1	inhibition	-	NS5B polymerase	33 µM	-	Hepatitis C virus	-	98.78%
O=C(Nc1ccsc1-c1nc(C(=O)O)c(O)c(=O)[nH]1)OCc1cc(F)ccc1F	IC50	-	HCV polymerase	-	-	Hepatitis C virus	-	<25 µM
CCOC(=O)CCCN(C)c1cc(C#N)cc(C2(C3CCC3)C(C#N)=C(N)Oc3n[nH]c(C)c32)c1	IC50	absorbance	Serine hydroxymethyltransferase	-	-	Plasmodium falciparum	-	0.56 µM
CCCCCCCC/C=C/CCCCCCCC(=O)Nc1nnc(NCC(CC)CCCC)s1	IC50	-	Polymerase	-	-	Human cytomegalovirus	-	>25 µM
CN1C(=O)c2ccccc2C(CC(=O)c2ccc(F)cc2)C1=O	IC50	-	Protease	-	-	Rhinovirus	Serotype 14	56.2 µM
Nc1nc(-c2ccc(NC(=O)CNCc3ccccc3)cc2)cs1	IC50	-	Helicase	-	-	Herpes simplex virus 1	-	8.3 µM
Nc1nc(N)c(-c2ccc(Cl)cc2)c(/C=C/c2ccc([N+](=O)[O-])cc2)n1	IC50	-	Dihydrofolate reductase	-	-	Cryptosporidium parvum	TYPE II	30 µM
CCCC(=O)C1C(=O)N(CC(=O)N2CCCC2C(=O)O)C(=O)c2ccccc21	IC50	-	Protease	-	-	Rhinovirus	Serotype 14	>100 µM
CCOC(=O)c1cnn2c(-c3ccc(Cl)cc3)cc(-c3ccc(F)cc3)nc12	IC50	-	RNA-dependent RNA polymerase	-	-	Hepatitis C virus	-	>10 µM
Oc1ccc(CN[C@@H]2[C@H](O)[C@@H](O)[C@H](O)[C@H]3O[C@@H]23)cc1	inhibition	-	Amyloglucosidase	100 µM	-	Aspergillus niger	-	54%
CCc1[nH]nc2c1C(c1cc(Cl)cc(Cl)c1)(C1CCC1)C(C#N)=C(N)O2	Ki	absorbance	Serine hydroxymethyltransferase	-	-	Plasmodium falciparum	-	0.5125 µM
COc1c(N2C[C@@H]3CCCN[C@@H]3C2)ccc2c(=O)c(C(=O)O)cn(C3CC3)c12	IC50	-	DNA gyrase	-	-	Streptococcus pneumoniae	-	42.4 µg/mL
CS(=O)(=O)CCCN1C(=O)c2ccccc2C(CC(=O)c2ccccc2)C1=O	IC50	-	Protease	-	-	Rhinovirus	Serotype 14	22.1 µM
CCOc1c(Cl)cc2nc(S(N)(=O)=O)sc2c1Cl	IC50	-	Geranylgeranyl-protein transferase I	-	-	Candida albicans	-	0.14 µM
O=C(Nc1cscc1-c1nc(C(=O)O)c(O)c(=O)[nH]1)NS(=O)(=O)c1ccc(F)cc1	IC50	-	HCV polymerase	-	-	Hepatitis C virus	-	<25 µM
COc1ccccc1N1CCN(c2cncc(-c3ccc(C(F)(F)F)cc3)n2)CC1	IC50	-	UL97 kinase	-	-	Cytomegalovirus	-	<100 µM
N[C@@H]1[C@H](O)[C@@H](O)[C@H](O)[C@@H]2O[C@H]12	inhibition	-	Amyloglucosidase	100 µM	-	Aspergillus niger	-	0%

Again, the opening 8 rows:

structure,endpoint,method,protein,tested at,changes,agent,strain,result
COc1ccc(-c2ccc(C)cc2)c(-c2ccc3cc(-c4nc5cc(C(=O)O)ccc5n4C4CCCCC4)ccc3n2)c1,inhibition,-,NS5B polymerase,33 µM,-,Hepatitis C virus,-,98.71%
CC1(c2ccc(OCC#N)c(Cl)c2Cl)C(=O)c2ccccc2C1=O,IC50,-,Geranylgeranyl-protein transferase I,-,-,Candida albicans,-,0.07 µM
O=C(Nc1nnc(NCCc2ccccc2)s1)c1ccc(Cl)cc1Cl,IC50,-,Polymerase,-,-,Human cytomegalovirus,-,>25 µM
C[C@H]1NCc2cc(-c3c(F)cc4c(=O)c(C(=O)O)cn(C5CC5)c4c3OC(F)F)ccc21,IC50,-,DNA gyrase,-,-,Streptococcus pneumoniae,-,11.6 µg/mL
O=C(O)c1ccc2c(c1)nc(-c1ccc3nc(-c4cc(C(=O)N5CCCC5)ccc4-c4ccc(F)cc4)ccc3c1)n2C1CCCCC1,inhibition,-,NS5B polymerase,33 µM,-,Hepatitis C virus,-,100%
c1coc(CNc2nccnc2-c2cc3ccccc3o2)c1,IC50,-,UL97 kinase,-,-,Cytomegalovirus,-,<100 µM
O=C(O)c1cc2nc(-c3ccc(Cl)cc3)cc(N3CCOCC3)n2n1,IC50,-,RNA-dependent RNA polymerase,-,-,Hepatitis C virus,-,>10 µM
Cc1c(Cl)cccc1S(=O)(=O)Nc1ccccc1-c1nc(C(=O)O)c(O)c(=O)[nH]1,IC50,-,HCV polymerase,-,-,Hepatitis C virus,-,<100 µM